From US4098896A, “1-Halohydrocarbylthio-3-hydrocarbylthio-4-substituted-1,2,4-delta^2 -triazolidin-5-ones” (dated 1978)

System: Botrytis cinerea
Experiment: Control of Botrytis cinerea on detached horsebean leaves

## CSc1nn(SC(Cl)(Cl)C(Cl)Cl)c(=O)n1-c1ccccc1
  controlling Botrytis cinerea fungus on detached horsebean leaves: effective
